Results of unrelated studies side by side (data: NIAID ChemDB).

Shared fields: enzyme or target tests; species: HIV-1; protein: Protease

ICn: concentration for n% inhibition.

{"SMILES": "CCCC[C@@H](CN[C@@H](CCCC)C(=O)N[C@@H](CCC(N)=O)C(=O)N[C@@H](CCCN=C(N)N)C(N)=O)NC(=O)[C@@H](NC(=O)[C@@H](NC(C)=O)[C@@H](C)O)[C@@H](C)CC", "endpoint": "Ki", "read by": "HPLC", "result": "0.78 µM"}
{"SMILES": "CNC(=O)[C@@H](NC(=O)[C@H](Sc1ccccc1)[C@H](O)[C@@H](O)[C@@H](Sc1ccccc1)C(=O)N[C@H](C(=O)NC)C(C)C)C(C)C", "endpoint": "Ki", "read by": "fluorescence", "result": "0.0063 µM"}
{"SMILES": "CC(C)C[C@H](NC(=O)OCc1ccccc1)C(=O)N[C@@H](CC(N)=O)C(=O)N[C@@H](Cc1ccccc1)[C@H](O)CN1CCC[C@H]1C(=O)OC(C)(C)C", "endpoint": "IC50", "read by": "absorbance", "result": "0.6 µM"}
{"SMILES": "CC(C)[C@H](CC(=O)N(C)Cc1ccccn1)C(=O)N[C@@H](Cc1ccccc1)[C@@H](O)[C@H](O)[C@H](Cc1ccccc1)NC(=O)[C@@H](CC(=O)N(C)Cc1ccccn1)C(C)C", "endpoint": "IC50", "read by": "fluorescence", "result": ">0.01 µM"}
{"SMILES": "CC(C)(C)OC(=O)N[C@@H](Cc1ccccc1)[C@H](O)CNC[C@@H](O)[C@H](Cc1ccccc1)NC(=O)SC(C)(C)C", "setting": "pH 5.5", "endpoint": "IC50", "read by": "HPLC", "result": "<10 µM"}
{"SMILES": "CC1(C)S[C@H]([C@H](NC(=O)Cc2ccccc2)C(=O)NCc2ccccc2)N[C@H]1C(=O)N[C@H](Cc1ccccc1)[C@H](O)CC(=O)NCc1ccccc1", "strain or isolate": "RF", "endpoint": "Ki", "read by": "HPLC", "result": "0.00025 µM"}
{"SMILES": "CC(C)[C@H](NC(=O)OCc1ccccn1)C(=O)NC(Cc1ccccc1)C(O)C(F)(F)C(Cc1ccccc1)NC(=O)[C@@H](NC(=O)OCc1ccccn1)C(C)C", "endpoint": "IC50", "read by": "fluorescence", "result": "<0.001 µM"}
{"SMILES": "CC(C)[C@H](NC(=O)OCc1ccccc1)C(=O)N[C@@H](Cc1ccccc1)[C@H](O)CNC[C@@H](O)[C@H](Cc1ccccc1)NC(=O)[C@@H](NC(=O)OCc1ccccc1)C(C)C", "setting": "pH 5.5", "endpoint": "IC50", "read by": "HPLC", "result": "<10 µM"}
{"SMILES": "CC(C)[C@H](NC(=O)c1ccccn1)C(=O)N[C@@H](Cc1ccccc1)[C@@H](O)[C@H](O)[C@H](Cc1ccccc1)NC(=O)[C@@H](NC(=O)c1ccccn1)C(C)C", "endpoint": "IC50", "read by": "fluorescence", "result": "<0.1 µM"}
{"SMILES": "CNC(=O)C(O)(C(=O)N[C@@H](Cc1ccccc1)[C@H](O)CNC[C@@H](O)[C@H](Cc1ccccc1)NC(=O)OC(C)(C)C)C(C)(C)C", "setting": "pH 5.5", "endpoint": "IC50", "read by": "HPLC", "result": "<10 µM"}
{"SMILES": "COc1c(O)cc2oc3cc(O)c(CC=C(C)C)c(O)c3c(=O)c2c1CC=C(C)C", "endpoint": "IC50", "read by": "HPLC", "result": "5.12 ± 0.41 µM"}
{"SMILES": "CC(C)[C@H](NC(=O)N(C)Cc1ccccn1)C(=O)N[C@@H](Cc1ccccc1)C(O)[C@H](Cc1ccccc1)NC(=O)[C@@H](NC(=O)N(C)Cc1ccccn1)C(C)C", "endpoint": "IC50", "read by": "fluorescence", "result": "<0.05 µM"}
{"SMILES": "CC(C)(C)OC(=O)N1Cc2ccccc2C[C@H]1[C@H](O)CNC[C@@H](O)[C@@H]1Cc2ccccc2CN1C(=O)OC(C)(C)C", "setting": "pH 5.5", "endpoint": "IC50", "read by": "HPLC", "result": ">10 µM"}
{"SMILES": "CCNC(=O)[C@@H](NC(=O)Cc1ccccc1)[C@@H]1N[C@@H](C(=O)NCCNC(=O)[C@@H]2N[C@@H]([C@H](NC(=O)Cc3ccccc3)C(=O)NCC)SC2(C)C)C(C)(C)S1", "strain or isolate": "RF", "endpoint": "IC50", "read by": "HPLC", "result": "0.0048 µM"}
{"SMILES": "NC(=O)C[C@H](NC(=O)OCc1ccccc1)C(=O)NC(Cc1ccccc1)C(O)C(Cc1ccccc1)NC(=O)[C@H](CC(N)=O)NC(=O)OCc1ccccc1", "endpoint": "IC50", "read by": "fluorescence", "result": "0.91 µM"}
{"SMILES": "O=C1N(Cc2cccc(CO)c2)[C@H](Cc2ccccc2)[C@H](O)[C@@H](O)[C@@H](Cc2ccccc2)N1Cc1cccc(CO)c1", "endpoint": "Ki", "read by": "fluorescence", "result": "0.4 µM"}
{"SMILES": "CC(C)(C)OC(=O)N[C@H](/C(O)=C(\\C#N)c1ccc([N+](=O)[O-])cc1)c1ccccc1", "endpoint": "Ki", "read by": "HPLC", "result": "30 µM"}
{"SMILES": "CC(C)(C)OC(=O)N[C@@H](Cc1ccccc1)[C@H](O)CNC[C@@H](O)[C@H](Cc1ccccc1)NC(=O)OC1CCOC1", "setting": "pH 5.5", "endpoint": "IC50", "read by": "HPLC", "result": "<10 µM"}
{"SMILES": "CCCC[C@H](NC(=O)[C@@H](NC(=O)[C@H](Cc1cccc2ccccc12)CS(=O)(=O)C(C)(C)C)C(C)C)[C@@H](O)[C@H](O)[C@H](CCCC)NC(=O)[C@@H](NC(=O)[C@H](Cc1cccc2ccccc12)CS(=O)(=O)C(C)(C)C)C(C)C", "strain or isolate": "D34", "endpoint": "IC50", "read by": "HPLC", "result": "0.001 µM"}
{"SMILES": "CC(C)(C)OC(=O)N1CCC[C@H]1C(O)CNCC(O)[C@@H]1CCCN1C(=O)OC(C)(C)C", "setting": "pH 5.5", "endpoint": "IC50", "read by": "HPLC", "result": ">10 µM"}
{"SMILES": "CC(C)[C@H](NC(=O)OCc1ccccc1)C(=O)N[C@@H](Cc1ccccc1)[C@H](O)[C@H](Cc1ccccc1)NC(=O)[C@@H](NC(=O)OCC1CCCCN1C)C(C)C", "endpoint": "IC50", "read by": "fluorescence", "result": "~0.05 µM"}
{"SMILES": "COC(=O)[C@@H](NC(=O)[C@H](CC(C)C)NC(=O)[C@@H](NC(=O)CCCOc1ccc2ccc(OCCCC(=O)N[C@@H](Cc3ccc(O)cc3)C(=O)N[C@@H](CCC(=O)OC(C)(C)C)C(=O)N[C@@H](CC(C)C)C(N)=O)cc2n1)C(C)C)C(C)C", "endpoint": "IC50", "read by": "fluorescence", "result": "1 µM"}
{"SMILES": "CC(C)(C)OC(=O)N[C@H](Cc1ccccc1)/C(O)=C(\\C#N)c1ccc([N+](=O)[O-])cc1", "endpoint": "Ki", "read by": "HPLC", "result": "54 µM"}
{"SMILES": "CC[C@H](C)[C@H](NC(=O)[C@@H](NC(=O)CCCOc1ccc2ccc(OCCCC(=O)N[C@H](C(=O)N[C@H](C(=O)N[C@H](C(=O)OC)C(C)C)[C@@H](C)CC)[C@@H](C)O)nc2c1)[C@@H](C)O)C(=O)N[C@H](C(=O)OC)C(C)C", "endpoint": "IC50", "read by": "fluorescence", "result": ">5.7 µM"}
{"SMILES": "CC(C)(O)c1cccc(CN2C(=O)N(Cc3cccc(C(C)(C)O)c3)[C@H](Cc3ccccc3)[C@H](O)[C@@H](O)[C@H]2Cc2ccccc2)c1", "strain or isolate": "RF", "endpoint": "Ki", "result": "0.000067 µM"}

Again, the opening 2 rows:

{"SMILES": "CCCC[C@@H](CN[C@@H](CCCC)C(=O)N[C@@H](CCC(N)=O)C(=O)N[C@@H](CCCN=C(N)N)C(N)=O)NC(=O)[C@@H](NC(=O)[C@@H](NC(C)=O)[C@@H](C)O)[C@@H](C)CC", "endpoint": "Ki", "read by": "HPLC", "result": "0.78 µM"}
{"SMILES": "CNC(=O)[C@@H](NC(=O)[C@H](Sc1ccccc1)[C@H](O)[C@@H](O)[C@@H](Sc1ccccc1)C(=O)N[C@H](C(=O)NC)C(C)C)C(C)C", "endpoint": "Ki", "read by": "fluorescence", "result": "0.0063 µM"}

Rows are shuffled and stem from different studies.